Pooled drug test results. Numbers come from NIAID ChemDB, via PubChem.

Common to all: tests on isolated targets; species: HIV-1; protein: Protease; read-out: inhibition

Percent inhibition refers to the dose given; in toxicity tests it is the harm to the cells. An empty or dashed field is not shown. Lines come from different laboratories, so protocols vary.

SMILES,method,tested at,value
CC(=O)N[C@H](Cc1ccccc1)C(=O)N[C@@H](Cc1ccccc1)[C@H](O)Cc1ccccc1C(=O)NC(C)(C)C,fluorescence,1 µg/mL,45%
CC(C)[C@H](NC(=O)[C@H](Cc1ccccc1)NC(=O)N[C@@H](Cc1ccccc1)C(=O)N[C@H](C(=O)O)C(C)C)C(=O)O,absorbance,10 µM,<10%
COc1cc2c(c(O)c1OC)-c1c(cc3c(c1OC)OCO3)[C@H](OC(=O)/C=C/c1ccccc1)[C@H](C)[C@H](C)C2,HPLC,100 µg/mL,77.8%
CSCC[C@H](N)C(=O)N[C@H](C(=O)N[C@@H](CC(C)C)C(=O)N[C@@H](CC(N)=O)C(=O)N[C@@H](Cc1ccccc1)C(=O)O)[C@@H](C)O,HPLC,266 µg/mL,34%
CC(C)COC(=O)C(Cc1ccncc1)NC(=O)C(=O)NC(Cc1ccncc1)C(=O)OCC(C)C,absorbance,10 µM,<10%
CCOC(=O)c1cn(CC(O)CNc2ccccc2N)cc1-c1ccccc1,-,200 µM,26%
COc1ccc(C2C3(CO)C4N(C(=O)OC(C)(C)C)C5C2(CO)C2N(C(=O)OC(C)(C)C)C3C4(CO)C(c3ccc(OC)cc3)C52CO)cc1,absorbance,50 µM,32%
CCOC(=O)[C@H](CC(C)C)NC(=O)[C@H](Cc1ccccc1)NC(=O)[C@@H](O)[C@H](Cc1ccccc1)NC(=O)OC(C)(C)C,HPLC,33 µM,0%
COc1cc2c(c(O)c1OC)-c1c(cc3c(c1OC)OCO3)[C@H](OC(C)=O)[C@H](C)[C@H](C)C2,HPLC,100 µg/mL,12.8%
CCOC(=O)c1cn(CC(O)CNc2ccccc2C)cc1-c1ccccc1,-,200 µM,32%
CC(C)(C)NC(=O)[C@H]1N(C(=O)[C@@H](O)[C@H](Cc2ccccc2)NC(=O)[C@H](CC(N)=O)NC(=O)COc2cccc(-c3ccccc3)c2)CSC1(C)C,-,0.05 µM,98.9%
CCOC(=O)c1cn(CC(O)CNc2ccc(C)cc2)cc1-c1ccccc1,-,200 µM,27%
CC[C@@H](C)[C@H](NC(=O)[C@@H]1CCCN1C(=O)[C@@H](O)[C@H](CC1CCCCC1)NC(=O)[C@H](CC(N)=O)NC(=O)c1ccco1)C(=O)N[C@H](C(N)=O)C(C)C,-,5 µM,90.7%
COc1ccc(C2C3(CO)C4N(C(=O)Cc5ccccc5)C5C2(CO)C2N(C(=O)Cc6ccccc6)C3C4(CO)C(c3ccc(OC)cc3)C52CO)cc1,absorbance,50 µM,18%
CC(C[C@@H](O)[C@H](O)C(C)(C)O)[C@@H]1CC[C@]2(C)C3=CCC4C(C)(C)C(O)CC[C@]4(C)C3CC[C@@]12C,substrate cleavage / fluorescence,100 µg/mL,44.5%
CC(=O)N[C@@H](CC(C)C)C(=O)N[C@H](C(=O)N[C@@H](CC(C)C)C(=O)N[C@@H](CC(N)=O)C(=O)N[C@@H](Cc1ccccc1)C(=O)O)[C@@H](C)O,HPLC,266 µg/mL,25%
COC(=O)N1C2C3(CO)C(c4ccc(OC)cc4)C4(CO)C1C1(CO)C(c5ccc(OC)cc5)C2(CO)C3N(C(=O)OC)C41,absorbance,50 µM,9%
CC(C)(C)OC(=O)N[C@@H](Cc1ccccc1)C(=O)N[C@@H](CO)C(=O)N[C@@H](Cc1ccccc1)[C@@H](O)C(=O)NCC1CCCCC1,-,1000 µM,66.7%
O=C(CCC(=O)N[C@@H](Cc1ccccc1)C(=O)OCc1ccccc1)N[C@@H](Cc1ccccc1)C(=O)OCc1ccccc1,absorbance,10 µM,<10%
CC(C)(C)NC(=O)c1ccccc1C[C@@H](O)[C@H](Cc1ccccc1)NC(=O)[C@@H](CSCc1ccccc1)NC(=O)OC(C)(C)C,fluorescence,1 µg/mL,3%
CCOC(=O)c1cn(CC(O)CNc2ccccc2Cl)cc1-c1ccccc1,-,200 µM,39%
CC(C)(C)NC(=O)[C@H]1N(C(=O)[C@@H](O)[C@H](Cc2ccccc2)NC(=O)[C@H](CC(N)=O)NC(=O)OCc2ccccc2)CCC1(C)C,-,0.05 µM,73.2%
CC(C[C@H]1OC(C)(C)O[C@@H]1C(C)(C)O)[C@@H]1CC[C@]2(C)C3=CCC4C(C)(C)C(=O)C[C@]4(C)C3CC[C@@]12C,substrate cleavage / fluorescence,100 µg/mL,-2.07%
CSC[C@H](NC(=O)COc1cccc2cccnc12)C(=O)N[C@@H](Cc1ccccc1)[C@H](O)C(=O)N1CSC(C)(C)[C@H]1C(=O)NC(C)(C)C,-,0.05 µM,90.5%
CC(C)COC(=O)[C@H](Cc1ccccc1)NC(=O)[C@H](O)[C@@H](O)C(=O)N[C@@H](Cc1ccccc1)C(=O)OCC(C)C,absorbance,10 µM,<10%
COC(=O)N1C2C3(CO)C(c4ccccc4)C4(CO)C1C1(CO)C(c5ccccc5)C2(CO)C3N(C(=O)OC)C41,absorbance,50 µM,9%
CC(C[C@@H](OC(C)(C)C)[C@H](O)C(C)(C)O)[C@@H]1CC[C@]2(C)C3=CCC4C(C)(C)C(=O)C(O)=C[C@]4(C)C3CC[C@@]12C,substrate cleavage / fluorescence,100 µg/mL,43.7%
CC(=O)N[C@H](C(=O)N[C@@H](CC(C)C)C(=O)N[C@@H](CC(N)=O)C(=O)N[C@@H](Cc1ccccc1)C(=O)O)[C@@H](C)O,HPLC,266 µg/mL,18%
CC(C)(C)NC(=O)c1ccccc1C[C@@H](O)[C@H](Cc1ccccc1)NC(=O)[C@H](N)COCc1ccccc1,fluorescence,1 µg/mL,5%
O=C(CCC(=O)N[C@@H](Cc1ccccc1)C(=O)OCc1ccccc1)CCC(=O)N[C@@H](Cc1ccccc1)C(=O)OCc1ccccc1,absorbance,10 µM,<10%
CCOC(=O)c1cn(CC(O)CNc2cccc(Cl)c2)cc1-c1ccccc1,-,200 µM,36%
CC(C)(C)NC(=O)[C@@H]1CSCN1C(=O)[C@@H](O)[C@H](Cc1ccccc1)NC(=O)[C@H](CS(C)(=O)=O)NC(=O)c1ccccc1-c1ccccc1,-,5 µM,>90%
CC(C)COC(=O)[C@H](Cc1ccccc1)NC(=O)C(N)C(=O)N[C@@H](Cc1ccccc1)C(=O)OCC(C)C,absorbance,10 µM,<10%
CC(C)C(CO)NC(=O)[C@@H]1CSCN1C(=O)[C@@H](O)[C@H](Cc1ccccc1)NC(=O)[C@H](CS(C)(=O)=O)NC(=O)COc1cccc2ccccc12,-,0.05 µM,80.7%
CC(C)(C)OC(=O)N1C2C3(CO)C(c4ccccc4)C4(CO)C1C1(CO)C(c5ccccc5)C2(CO)C3N(C(=O)OC(C)(C)C)C41,absorbance,25 µM,49%
C=CCOC1C[C@@H](C(=O)NC(C)(C)C)N(C(=O)[C@@H](O)[C@H](Cc2ccccc2)NC(=O)[C@H](CS(C)(=O)=O)NC(=O)COc2cccc3ccccc23)C1,-,0.05 µM,29.4%
CC(C)COC(=O)[C@H](Cc1ccccc1)NC(=O)C(=O)N[C@@H](Cc1ccccc1)C(=O)OCC(C)C,absorbance,10 µM,40%
CC(=O)N[C@@H](CSCc1ccccc1)C(=O)N[C@@H](Cc1ccccc1)[C@H](O)Cc1ccccc1C(=O)NC(C)(C)C,fluorescence,1 µg/mL,12%
CC(C)C[C@H](NC(=O)[C@@H](N)[C@@H](C)O)C(=O)N[C@@H](CC(N)=O)C(=O)N[C@@H](Cc1ccccc1)C(N)=O,HPLC,266 µg/mL,5%
CCOC(=O)c1cn(CC(O)CNc2cccc(C)c2)cc1-c1ccccc1,-,200 µM,29%
CC(C[C@@H](O)[C@H](O)C(C)(C)O)[C@@H]1CC[C@]2(C)C3=CCC4C(C)(C)C(=O)CC[C@]4(C)C3CC[C@@]12C,substrate cleavage / fluorescence,100 µg/mL,15.5%
CC(C)C[C@H](NC(=O)[C@@H](N)[C@@H](C)O)C(=O)N[C@@H](CC(N)=O)C(=O)N[C@@H](Cc1ccccc1)C(=O)O,HPLC,266 µg/mL,41%

The last 6 rows once more:

SMILES | method | tested at | value
CC(C)COC(=O)[C@H](Cc1ccccc1)NC(=O)C(=O)N[C@@H](Cc1ccccc1)C(=O)OCC(C)C | absorbance | 10 µM | 40%
CC(=O)N[C@@H](CSCc1ccccc1)C(=O)N[C@@H](Cc1ccccc1)[C@H](O)Cc1ccccc1C(=O)NC(C)(C)C | fluorescence | 1 µg/mL | 12%
CC(C)C[C@H](NC(=O)[C@@H](N)[C@@H](C)O)C(=O)N[C@@H](CC(N)=O)C(=O)N[C@@H](Cc1ccccc1)C(N)=O | HPLC | 266 µg/mL | 5%
CCOC(=O)c1cn(CC(O)CNc2cccc(C)c2)cc1-c1ccccc1 | - | 200 µM | 29%
CC(C[C@@H](O)[C@H](O)C(C)(C)O)[C@@H]1CC[C@]2(C)C3=CCC4C(C)(C)C(=O)CC[C@]4(C)C3CC[C@@]12C | substrate cleavage / fluorescence | 100 µg/mL | 15.5%
CC(C)C[C@H](NC(=O)[C@@H](N)[C@@H](C)O)C(=O)N[C@@H](CC(N)=O)C(=O)N[C@@H](Cc1ccccc1)C(=O)O | HPLC | 266 µg/mL | 41%